Results of unrelated studies side by side (data: NIAID ChemDB).

All rows: whole-cell or culture tests; agent: Plasmodium falciparum

Rows are shuffled and stem from different studies.

smiles,read-out,cell line,read by,changes,conditions,strain or isolate,value
CCN(CC)CCCC(C)Nc1ccnc2cc(Cl)ccc12,EC50,-,radiometric,-,-,3D7,0.03 µM
Cc1c(-c2ccc(-c3ccc(OC(C)(C)C)cc3)nc2)[nH]c2cc(F)ccc2c1=O,EC50,-,SYBR Green,-,-,TM902CB,0.183 µM
CCN(CC)CCCC(C)Nc1ccnc2cc(Cl)ccc12,EC50,-,-,-,72 h,Dd2,0.01 µg/mL
NC1=Nc2ccc(I)cc2C1(O)c1ccccc1,EC50,-,-,-,-,3D7,0.289 µM
C[C@H]1[C@@H](O)O[C@@H]2OC3(C)CC[C@H]4[C@H](C)CC[C@@H]1[C@@]24OO3,EC50,Human A+/O+ erythrocytes,LDH / absorbance,-,-,3D7,0.01 µg/mL
Cc1[nH]c(C)c(Cl)c(=O)c1Cl,EC50,RBC,flow cytometry,-,-,W2,9.73 µM
COC(=O)c1cccc(C2(O)C(N)=Nc3ccc(Cl)cc32)c1,EC50,-,-,-,-,Dd2,1.578 µM
O=C(CCCNc1ccnc2cc(Cl)ccc12)N[C@H]1C(=O)N(c2ccc(F)cc2)[C@H]1/C=C/c1ccccc1,EC50,-,flow cytometry,Chloroquine-resistant,-,W2,0.1421 µM
COc1cc(C(=O)O)ccc1OC1CC(O)C(O)C(COC(=O)/C=C/c2ccccc2)O1,EC50,Erythrocytes,-,-,-,3D7,>25 µM
CCN(CC)CCCC(C)Nc1ccnc2cc(Cl)ccc12,EC50,-,microscopy,Chloroquine-resistant,-,RKL9,0.192 µM
CCN(CC)CCCC(C)Nc1ccnc2cc(Cl)ccc12,EC50,RBC,MTT / LDH,-,-,D10,0.04 µM
CC(=O)OC(C)(C)CCC(=O)[C@](C)(O)C1[C@H](O)C[C@@]2(C)C3CC=C4C(O[C@H](OC5OC(CO)C(O)C(O)C5O)[C@H](O)C4(C)C)[C@]3(C)CC[C@]12C,EC50,Erythrocytes,-,-,-,3D7,>25 µM
O=C(CCNc1ccnc2cc(Cl)ccc12)N[C@H]1C(=O)N(C2CCCCCC2)[C@H]1/C=C/c1ccccc1,EC50,-,flow cytometry,Chloroquine-resistant,-,W2,0.3781 µM
CC(=O)c1cccc(C2(O)C(N)=Nc3ccc(Cl)cc32)c1,EC50,-,-,-,-,Dd2,1.525 µM
CCN(CC)CCCC(C)Nc1ccnc2cc(Cl)ccc12,EC50,-,LDH,CQ-resistant,-,Dd2,0.378 µM
COC(=O)c1c(C)cc(OC(=O)c2c(C)cc(O)c(C=O)c2O)c(C)c1O,EC50,-,hypoxanthine uptake / radiometric,-,-,W2 Mef,1.78 µM
COc1c(C)c(O)cc2c1C(=O)c1ccccc1C2=O,EC50,-,-,-,-,3D7,>37 µM
COc1ccc(C2(O)C(N)=Nc3ccc(F)cc32)cc1,EC50,-,-,-,-,Dd2,0.359 µM
Cc1ccc(C(C)C)cc1.NC(=S)N/N=C/c1ccc(Cl)cc1.[Cl][Ru+],EC50,-,LDH,-,-,Dd2,3.8 µM
NC1=Nc2ccc(Cl)cc2[C@@]1(O)c1ccccc1,EC50,-,-,-,-,Dd2,1.46 µM
CCN(CC)CCCC(C)Nc1ccnc2cc(Cl)ccc12,EC50,-,LDH / absorbance,-,-,D10,0.00549 µM
NCCSC[C@H](N)C(=O)N(O)C1C[C@@H](C(N)=O)N(C(=O)c2ccc(-c3cccc([N+](=O)[O-])c3)o2)C1,EC50,Red blood cells,flow cytometry,-,48 h,3D7,151 µM
COc1ccc2c(c1OC)C(=O)c1ccc(C)cc1C2=O,EC50,-,-,-,-,3D7,1.1 µM
O=C(O)/C=C/c1ccc(O)cc1,EC50,-,hypoxanthine uptake / radiometric,-,-,W2 Mef,12.89 µM
O=C(CCNc1ccnc2cc(Cl)ccc12)N[C@H]1C(=O)N(C2CCCCC2)[C@H]1/C=C/c1ccccc1,EC50,-,flow cytometry,Chloroquine-resistant,-,W2,0.4326 µM
Cc1noc(C)c1Cn1cc(-c2ccnc(N)n2)c2ccccc21,EC50,-,LDH,-,-,W2,>14.49 µM
CCN(CC)CCCC(C)Nc1ccnc2cc(Cl)ccc12,EC50,Human erythrocytes,-,-,-,Congolese chloroquine-sensitive strain,<0.02 µg/mL
CCCCN1C(=O)[C@@H](NCCNc2ccnc3cc(Cl)ccc23)[C@H]1/C=C/c1ccccc1,EC50,-,flow cytometry,Chloroquine-resistant,-,W2,0.6118 µM
COc1ccc2[nH]cc(C3(O)C(N)=Nc4ccc(Cl)cc43)c2c1,EC50,-,-,-,-,3D7,>5 µM
CC(C)CN1C(=O)[C@@H](NCCNc2ccnc3cc(Cl)ccc23)[C@H]1/C=C/c1ccccc1,EC50,-,flow cytometry,Chloroquine-resistant,-,W2,0.4246 µM
NC(=S)N/N=C/c1ccc(Cl)cc1,EC50,-,LDH,-,-,Dd2,31.8 µM
CCOC(C)=O,EC50,Human dermal fibroblasts,MTT,-,-,D10,61.3 µg/mL
NCCSC[C@H](N)C(=O)N(O)C1C[C@@H](C(N)=O)N(C(=O)CCc2cn(-c3ccccc3)nc2-c2ccccc2)C1,EC50,Red blood cells,flow cytometry,-,48 h,3D7,48.1 µM
CCN(CC)CCCC(C)Nc1ccnc2cc(Cl)ccc12,EC50,-,-,-,-,K1,0.21 µg/mL
CN[C@@H](CC1=c2c(O)c3c(c(O)c2N=C1)=NC=CS3(=O)=O)C(=O)O,MIC,-,-,-,-,3D7,0.309 µM
NC(=S)N/N=C/c1ccccc1.[Cl][Ru+].c1ccccc1,EC50,-,LDH,-,-,NF54,10.2 µM
O=C(CCc1ccccc1)c1ccccc1OCC(O)CN1CCN(c2ccccc2)CC1,EC50,-,-,-,-,3D7,0.09 µM
COc1ccc(/C=C/C(=O)c2ccc(Cl)cc2)c(OC)c1OC,EC50,-,SYBR Green / fluorescence,-,-,Dd2,6.8 µM
CCCCCCCCCCCC(=O)NC(CCCC[NH3+])C(=O)CCCCCC(=O)NCCCCCC(=O)NC(CCCC[NH3+])C(N)=O,EC50,-,hypoxanthine uptake,-,-,NF54,1 µM
O=C(/C=C/C=C/c1ccc2c(c1)OCO2)c1ccc(Br)cc1,EC50,-,SYBR Green / fluorescence,-,-,3D7,50 µM
CCC(C)(C(=O)Nc1cc(C(F)(F)F)ccc1-n1cncn1)c1cccc(C(F)(F)F)c1,EC50,-,-,-,-,3D7,0.003 µM
ClCCl,EC50,Human dermal fibroblasts,MTT,CQ-resistant,-,W2,42.5 µg/mL
N=C(N)c1ccc(OCCOc2ccc(C(=N)N)cc2)cc1,EC50,-,hypoxanthine uptake,-,-,W2,0.878 µM
CCN(CC)CCCC(C)Nc1ccnc2cc(Cl)ccc12,EC50,Red blood cells,flow cytometry,-,-,W2,0.186 µM
N=C(N)c1ccc(NCCCNc2ccc(C(=N)N)cc2[N+](=O)[O-])c([N+](=O)[O-])c1,EC50,-,hypoxanthine uptake,-,-,D6,0.138 µM
C/C(=N\NC(=S)NCCNc1ccnc2cc(Cl)ccc12)c1ccccn1,EC50,-,SYBR Green / fluorescence,-,-,3D7,0.25 µM
CC(C)CN1C(=O)[C@H](NC(=O)CNc2ccnc3cc(Cl)ccc23)[C@@H]1/C=C/c1ccccc1,EC50,-,flow cytometry,Chloroquine-resistant,-,W2,1.03 µM
N=C(N)c1ccc(NCCCCNc2ccc(C(=N)N)cc2)cc1,EC50,-,hypoxanthine uptake,-,-,D6,0.053 µM
Nc1nccc(-c2cn(Cc3ccc(Cl)s3)c3ccccc23)n1,EC50,-,LDH,-,-,D6,>14.43 µM
COc1c(C=O)c(O)cc2c1C(=O)c1ccccc1C2=O,EC50,-,-,-,-,3D7,51.28 µM
CCCCCCCCCCCC(=O)NC(CCCC[NH3+])C(=O)NC(CCCC[NH3+])C(=O)NCCCCCCCC(=O)NC(CCCC[NH3+])C(=O)NC(CCCC[NH3+])C(=O)NCCCCCCCC(=O)NC(CCCC[NH3+])C(N)=O,EC50,-,hypoxanthine uptake,-,-,NF54,8.9 µM
O=C(/C=C/C=C/c1ccc(Cl)cc1)c1ccc(Br)cc1,EC50,-,SYBR Green / fluorescence,-,-,INDO,25 µM
COc1ccccc1C1(O)C(N)=Nc2ccc(Cl)cc21,EC50,-,-,-,-,Dd2,0.057 µM
CCN1C(=NCc2cccc(Cl)c2)N[C@@H](c2cccc(C(F)(F)F)c2)C(C(=O)OC)=C1C,EC50,-,SYBR Green / fluorescence,-,-,7G8,9.8 µM
COc1ccc(/C=C/C=C/C(=O)c2ccc(Cl)cc2)cc1OC,EC50,-,SYBR Green / fluorescence,-,-,INDO,26 µM
NC(=O)C(CCCC[NH3+])NC(=O)CCCCCCCNC(=O)C(N)CCCC[NH3+],EC50,-,hypoxanthine uptake,-,-,FCR3,260 µM

Again, the opening 4 rows:

smiles	read-out	cell line	read by	changes	conditions	strain or isolate	value
CCN(CC)CCCC(C)Nc1ccnc2cc(Cl)ccc12	EC50	-	radiometric	-	-	3D7	0.03 µM
Cc1c(-c2ccc(-c3ccc(OC(C)(C)C)cc3)nc2)[nH]c2cc(F)ccc2c1=O	EC50	-	SYBR Green	-	-	TM902CB	0.183 µM
CCN(CC)CCCC(C)Nc1ccnc2cc(Cl)ccc12	EC50	-	-	-	72 h	Dd2	0.01 µg/mL
NC1=Nc2ccc(I)cc2C1(O)c1ccccc1	EC50	-	-	-	-	3D7	0.289 µM

An empty or dashed field is not shown. ECn: concentration that inhibits the pathogen or its effect by n%.